{
  "source": "paper PMC4379099",
  "about": "(PLoS Pathogens, 2015)",
  "key": {"[1]": {"target": "T1, EFR::XA21::GFP chimeric receptor (EFR ectodomain 1-649 fused to XA21 651-1025, carboxyl-terminal GFP, transgenic rice) (Arabidopsis | rice (Oryza longistaminata)) (UniProt C0LGT6)", "T1 sequence": "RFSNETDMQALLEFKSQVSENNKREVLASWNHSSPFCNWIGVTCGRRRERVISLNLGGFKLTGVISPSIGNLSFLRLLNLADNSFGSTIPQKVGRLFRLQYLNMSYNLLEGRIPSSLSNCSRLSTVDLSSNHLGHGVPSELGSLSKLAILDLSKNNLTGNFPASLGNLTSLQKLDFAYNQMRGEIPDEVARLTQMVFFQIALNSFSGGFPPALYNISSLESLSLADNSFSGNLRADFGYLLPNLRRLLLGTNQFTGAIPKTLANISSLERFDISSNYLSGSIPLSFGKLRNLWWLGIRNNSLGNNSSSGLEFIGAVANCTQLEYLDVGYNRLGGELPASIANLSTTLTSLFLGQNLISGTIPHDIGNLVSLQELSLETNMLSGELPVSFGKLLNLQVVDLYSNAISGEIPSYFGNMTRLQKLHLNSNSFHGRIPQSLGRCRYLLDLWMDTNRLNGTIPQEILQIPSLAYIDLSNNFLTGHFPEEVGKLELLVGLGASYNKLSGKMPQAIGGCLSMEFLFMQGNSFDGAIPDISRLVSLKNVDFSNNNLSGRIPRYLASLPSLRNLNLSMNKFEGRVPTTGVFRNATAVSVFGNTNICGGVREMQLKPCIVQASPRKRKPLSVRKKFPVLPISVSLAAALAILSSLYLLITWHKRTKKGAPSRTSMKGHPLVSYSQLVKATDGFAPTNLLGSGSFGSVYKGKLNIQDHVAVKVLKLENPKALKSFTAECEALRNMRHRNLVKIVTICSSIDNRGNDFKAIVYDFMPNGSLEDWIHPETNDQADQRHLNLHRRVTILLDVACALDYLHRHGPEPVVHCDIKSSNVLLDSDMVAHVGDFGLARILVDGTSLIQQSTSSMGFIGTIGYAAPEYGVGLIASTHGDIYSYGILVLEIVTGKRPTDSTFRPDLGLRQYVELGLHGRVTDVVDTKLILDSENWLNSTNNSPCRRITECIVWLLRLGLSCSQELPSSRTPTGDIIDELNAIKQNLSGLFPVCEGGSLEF"}, "[2]": {"target": "EFR::GFP (full-length Arabidopsis EFR with a carboxyl-terminal GFP fusion, transgenic rice) (Arabidopsis) (UniProt C0LGT6)"}},
  "data": [
    {"substance": "elf18Xoo", "values": [
      {"measurement": "EC50 of ROS production in mature rice leaves (dose response curve)", "setting": "[1]", "result": 0.4, "unit": "nM"},
      {"measurement": "EC50 of ROS production in mature rice leaves (dose response curve)", "setting": "[2]", "result": 0.3, "unit": "nM"}
    ]}
  ]
}
